Anti-infective test results gathered from many reports (values: NIAID ChemDB through PubChem).

Common to all: growth or infection tests; species: HIV-1; cells: MT-2; measure: EC50

Lines come from different laboratories, so protocols vary. An empty or dashed field is not shown. a–b is a range or a potency band. ECn: concentration that inhibits the pathogen or its effect by n%.

compound	strain or isolate	mutations	method	result
Nc1nc(NC2CC2)c2ncn([C@H]3CO[C@@H](CO)O3)c2n1	IIIB BCH-13520-resistant (RT V75I)	RT-V75I	RT activity	0.48 µM
CC(C)C1=C2[C@H]3CC[C@@H]4[C@@]5(C)CC[C@H](OC(=O)[C@H]6C[C@@H](C(=O)O)C6(C)C)C(C)(C)[C@@H]5CC[C@@]4(C)[C@]3(C)CC[C@@]2([C@@H](O)CNCC2(N)CNC2)CC1=O	92HT599		p24 / ELISA	<1 µM
C=C(C)[C@@H]1CC[C@]2(N)CC[C@]3(C)[C@H](CC[C@@H]4[C@@]5(C)CC[C@H](OC(=O)CC(C)(C)C(=O)O)C(C)(C)[C@@H]5CC[C@]43C)[C@@H]12	IIIB		RT activity	>0.199 µM
CCC(F)(F)COc1ccc(-c2cnc(C)c([C@H](OC(C)C)C(=O)O)c2N2CCC(C)(C)CC2)nc1	NL4-3		luminescence	0.0079 µM
Cc1ncnn1-c1cc(F)ccc1CNC(=O)c1nc2n(c(=O)c1O)CCOC21CCN(C(=O)C(=O)N(C)C)CC1	NL4-3		luciferase / reporter gene	≥0.1 µM
Cc1c(-c2c([C@H](OC(C)(C)C)C(=O)O)cnc3ccccc23)cc(F)c2c1CCCO2				0.1 µM
O=C(O)C(=O)N1CCC2(CC1)OCCn1c2nc(C(=O)NCc2ccc(F)cc2)c(O)c1=O	NL4-3		luciferase / reporter gene	≥0.1 µM
CC(C)C1=C2[C@H]3CC[C@@H]4[C@@]5(C)CC[C@H](OC(=O)[C@H]6C[C@@H](C(=O)O)C6(C)C)C(C)(C)[C@@H]5CC[C@@]4(C)[C@]3(C)CC[C@@]2([C@@H](O)CNC(=O)C(C)(C)NC(=O)c2ccncn2)CC1=O	92HT599		p24 / ELISA	<1 µM
O=C(N[C@@H](Cc1cc(F)cc(F)c1)c1ncccc1Br)NS(=O)(=O)N[C@@H](Cc1cc(F)cc(F)c1)c1ncccc1Br	NL4-3		luciferase	7.27 µM
CC(C)C1=C2[C@H]3CC[C@@H]4[C@@]5(C)CC[C@H](OC(=O)[C@H]6C[C@@H](C(=O)O)C6(C)C)C(C)(C)[C@@H]5CC[C@@]4(C)[C@]3(C)CC[C@@]2([C@@H](O)CNCC(C)(C)NC(=O)c2cc(C(C)C)[nH]n2)CC1=O	92HT599		p24 / ELISA	<1 µM
COc1ccc(N(C)C(=O)[C@H](Cc2ccccc2)NC(=O)c2cccc(S(=O)(=O)N[C@@H](Cc3ccccc3)C(=O)N(C)c3ccc(OC)cc3)c2)cc1	NL4-3		luciferase	0.72 µM
Cc1nnc(C(=O)N2CCC3(CC2)OCCCn2c3nc(C(=O)NCc3ccc(F)cc3-n3ncnc3C)c(O)c2=O)o1	NL4-3		luciferase / reporter gene	0.01–0.1 µM
CC1(C)CC(NC(=O)C(=O)Nc2ccc(Br)cc2)CC(C)(C)N1	IIIB		p24	11.88 µM
Cc1cc(Cl)ccc1OCCN(C)c1ccc(-c2cnc(C)c([C@H](OC(C)(C)C)C(=O)O)c2N2CCC(C)(C)CC2)cn1	NL4-3		luminescence	0.004 µM
CC(C)C1=C2[C@H]3CC[C@@H]4[C@@]5(C)CC[C@H](OC(=O)[C@H]6C[C@@H](C(=O)O)C6(C)C)C(C)(C)[C@@H]5CC[C@@]4(C)[C@]3(C)CC[C@@]2(NC(=O)C(C)(C)NC(=O)c2ccc(CN3CCNCC3)cc2)CC1=O	92HT599		p24 / ELISA	<0.003 µM
C=C(C)[C@@H]1CC[C@]2(CO)CC[C@]3(C)[C@H](CC[C@@H]4[C@@]5(C)CC=C(c6ccc(C(=O)O)cc6Cl)C(C)(C)[C@@H]5CC[C@]43C)[C@@H]12	NL4-3	Gag P373S	luciferase	1 µM
CC(C)C1=C2[C@H]3CC[C@@H]4[C@@]5(C)CC[C@H](OC(=O)[C@H]6C[C@@H](C(=O)O)C6(C)C)C(C)(C)[C@@H]5CC[C@@]4(C)[C@]3(C)CC[C@@]2(CC(=O)NCC(C)(C)NC(=O)c2nccs2)CC1=O	92HT599		p24 / ELISA	<1 µM
Nc1nc(N)c2ncn([C@H]3CO[C@@H](CO)O3)c2n1		RT-A98S F116Y Q151M T215Y	cytopathic effect / XTT	92 µM
CC(C)C1=C2[C@H]3CC[C@@H]4[C@@]5(C)CC[C@H](OC(=O)[C@H]6C[C@@H](C(=O)O)C6(C)C)C(C)(C)[C@@H]5CC[C@@]4(C)[C@]3(C)CC[C@@]2([C@@H](O)CN[C@@H](C)c2ccccc2)CC1=O	92HT599		p24 / ELISA	<1 µM
Nc1ncnc2c1ncn2[C@@H]1O[C@H](CO)[C@H]1CO	HXB2(RT-V75I) Recombinant	RT-V75I	RT activity	1.7 µM
C=C(C)[C@@H]1CC[C@]2(C(=O)O)CC[C@]3(C)[C@H](CC[C@@H]4[C@@]5(C)CC=C(c6ccc(C(=O)NS(C)(=O)=O)cc6)C(C)(C)[C@@H]5CC[C@]43C)[C@@H]12	NL4-3	Gag P373S	luciferase	1 µM
Cc1ccc(C)n1-c1ccc(C(=O)O)c(O)c1	AZT-resistant X4 CLADE B		p24	11.57 µM
CN(C(=O)[C@H](Cc1cc(F)cc(F)c1)NC(=O)/C=C\C(=O)N[C@@H](Cc1cc(F)cc(F)c1)C(=O)N(C)c1ccc2scnc2c1)c1ccc2scnc2c1	NL4-3		luciferase	0.08 µM
[O-][n+]1onc2ncnc(N3CC[N+]4(CC3)CC[N+]3(CCN(c5ncnc6no[n+]([O-])c56)CC3)CC4)c21	A17	RT-K103N Y181C	cytopathic effect / XTT	4.7 µM
CC(C)C1=C2[C@H]3CC[C@@H]4[C@@]5(C)CC[C@H](OC(=O)[C@H]6C[C@@H](C(=O)O)C6(C)C)C(C)(C)[C@@H]5CC[C@@]4(C)[C@]3(C)CC[C@@]2(NC(=O)C(C)(C)NC(=O)c2ccc(N3CCN(C)CC3)cc2)CC1=O	92HT599		p24 / ELISA	<0.003 µM
COc1ccc(N(C)C(=O)C(Cc2ccccc2)NC(=O)C(C)(C)CC(=O)N[C@H](Cc2ccccc2)C(=O)N(C)c2ccc(OC)cc2)cc1	NL4-3		luciferase	4.96 µM
CN(C)S(=O)(=O)N1CCC2(CC1)OCCCn1c2nc(C(=O)NCc2ccc(F)cc2)c(O)c1=O	NL4-3		luciferase / reporter gene	0.001–0.01 µM
C=C(C)[C@@H]1CC[C@]2(NC(=O)N3CCOCC3)CC[C@]3(C)[C@H](CC[C@@H]4[C@@]5(C)CC[C@H](OC(=O)CC(C)(C)C(=O)O)C(C)(C)[C@@H]5CC[C@]43C)[C@@H]12	IIIB		RT activity	>0.199 µM
C=C(C)[C@@H]1CC[C@]2(CO)CC[C@]3(C)[C@H](CC[C@@H]4[C@@]5(C)CC=C(c6ccc(C(=O)O)cc6)C(C)(C)[C@@H]5CC[C@]43C)[C@@H]12	NL4-3	Gag P373S	luciferase	1 µM
Cc1nc2ccc(C(=O)NC(C)(C)C(=O)N[C@@]34CC[C@]5(C)[C@H](CC[C@@H]6[C@@]7(C)CC[C@H](OC(=O)[C@H]8C[C@@H](C(=O)O)C8(C)C)C(C)(C)[C@@H]7CC[C@]65C)C3=C(C(C)C)C(=O)C4)cc2[nH]1	92HT599		p24 / ELISA	0.003–0.01 µM
C[C@H](Cn1cnc2c(N)ncnc21)OCP(=O)(O)O	Clinical isolate	M184V	recombinant virus assay	0.0018 µM
Cc1ncc(-c2cnc(SCC(C)C)c(F)c2)c(N2CCC(C)(C)CC2)c1[C@H](OC(C)(C)C)C(=O)O	NL4-3		luminescence	0.0047 µM
C=C(C)[C@@H]1CC[C@]2(CO)CC[C@]3(C)[C@H](CC[C@@H]4[C@@]5(C)CC=C(c6ccc(C(=O)O)c(O)c6)C(C)(C)[C@@H]5CC[C@]43C)[C@@H]12	NL4-3	Gag P373S	luciferase	1 µM
COc1ccnc2[nH]cc(C(=O)C(=O)N3CCN(C(=O)c4ccccc4)C[C@H]3C)c12	NL4-3		RT activity	0.067 µM
CC(C)C1=C2[C@H]3CC[C@@H]4[C@@]5(C)CC[C@H](OC(=O)[C@H]6C[C@@H](C(=O)O)C6(C)C)C(C)(C)[C@@H]5CC[C@@]4(C)[C@]3(C)CC[C@@]2(NC(=O)C(C)(C)NC(=O)c2ccc(N3CCOCC3)nc2)CC1=O	92HT599		p24 / ELISA	<0.003 µM
CNC(=O)c1c(O)c2ncc(Cc3ccc(F)cc3)c3c2n(c1=O)C[C@](C)(CO)O3	IIIB		ATP / luminescence	0.005 µM
O=C(NCc1ccc(F)cc1-n1cncn1)c1nc2n(c(=O)c1O)CCOC21CCN(C(=O)c2ccccc2)CC1	NL4-3		luciferase / reporter gene	0.001–0.01 µM
CN(CCCNC(=O)c1c(O)c2ncc(Cc3ccc(F)cc3)c3c2n(c1=O)CC(F)(F)CN3)CC(F)(F)F	IIIB		ATP / luminescence	0.018 µM
C=C(C)[C@@H]1CC[C@]2(NC(=O)OC)CC[C@]3(C)[C@H](CC[C@@H]4[C@@]5(C)CC[C@H](OC(=O)CC(C)(C)C(=O)O)C(C)(C)[C@@H]5CC[C@]43C)[C@@H]12	IIIB		RT activity	>0.199 µM
CNC(=O)c1c(O)c2ncc(Cc3ccc(F)cc3)c3c2n(c1=O)C=C(C(=O)NCC(C)(C)C#N)O3	IIIB		ATP / luminescence	0.0007 µM
CC(C)C1=C2[C@H]3CC[C@@H]4[C@@]5(C)CC[C@H](OC(=O)[C@H]6C[C@@H](C(=O)O)C6(C)C)C(C)(C)[C@@H]5CC[C@@]4(C)[C@]3(C)CC[C@@]2([C@@H](O)CNC(=O)C(C)(C)NC(=O)c2cncnc2)CC1=O	92HT599		p24 / ELISA	<1 µM
Nc1nc2c(ncn2[C@H]2CO[C@@H](CO)O2)c(=O)[nH]1		RT-K65R	cytopathic effect / XTT	4 µM
CC(C)C1=C2[C@H]3CC[C@@H]4[C@@]5(C)CC[C@H](OC(=O)[C@H]6C[C@@H](C(=O)O)C6(C)C)C(C)(C)[C@@H]5CC[C@@]4(C)[C@]3(C)CC[C@@]2(NC(=O)C(C)(C)NC(=O)c2ccc(Cl)cc2O[C@H]2CCOC2)CC1=O	92HT599		p24 / ELISA	0.003–0.01 µM
Cc1ncc(-c2ccc(OCC3CCC(C)(C)CC3)cn2)c(N2CCC(C)(C)CC2)c1[C@H](OC(C)(C)C)C(=O)O	NL4-3		luminescence	0.0033 µM
C#C[C@@]1(CO)C=C[C@H](n2cc(C)c(=O)[nH]c2=O)O1	Clinical isolate	K103N/M184V	recombinant virus assay	0.8721 µM
COCCCOc1ccc(-c2cnc(C)c([C@H](OC(C)(C)C)C(=O)O)c2N2CCC(C)(C)CC2)cc1	NL4-3		luminescence	0.0008 µM
[2H]c1nc2cc(N(C)C(=O)[C@H](Cc3cc(F)cc(F)c3)NC(=O)NS(=O)(=O)N[C@@H](Cc3cc(F)cc(F)c3)C(=O)N(C)c3ccc4sc([2H])nc4c3)ccc2s1	NL4-3		luciferase	0.02 µM
CC(C)C1=C2[C@H]3CC[C@@H]4[C@@]5(C)CC[C@H](OC(=O)[C@H]6C[C@@H](C(=O)O)C6(C)C)C(C)(C)[C@@H]5CC[C@@]4(C)[C@]3(C)CC[C@@]2([C@@H](O)CNCC(C)(CCCCN)NC(=O)c2ccc(Cl)cc2)CC1=O	92HT599		p24 / ELISA	<1 µM
N#CCCNC(=O)c1c(O)c2ncc(Cc3ccc(F)cc3)c3c2n(c1=O)CC(CO)(CO)O3	IIIB		ATP / luminescence	0.007 µM
NC(N)=NCCC[C@H](N)C(=O)NC[C@@H]1OC(O[C@H]2[C@@H](O)[C@H](O[C@@H]3[C@@H](O)[C@H](NC(=O)[C@@H](N)CCCN=C(N)N)C[C@H](NC(=O)[C@@H](N)CCCN=C(N)N)[C@H]3O[C@H]3O[C@H](CNC(=O)[C@@H](N)CCCN=C(N)N)[C@@H](O)[C@H](O)[C@H]3NC(=O)[C@@H](N)CCCN=C(N)N)O[C@@H]2CO)[C@H](NC(=O)[C@@H](N)CCCN=C(N)N)[C@@H](O)[C@@H]1O	B		p24 / RT activity	2.3 µM
CNC(=O)c1c(O)c2ncc(Cc3ccc(F)cc3)c3c2n(c1=O)C[C@@H](C(=O)NC(C)(C)CO)O3	IIIB		ATP / luminescence	0.012 µM
Cc1ncc(-c2ccc(OCC3CCOCC3)cn2)c(N2CCC(C)(C)CC2)c1[C@H](OC(C)(C)C)C(=O)O	NL4-3		luminescence	0.0026 µM
C=C(C)[C@@H]1CC[C@]2(NC(=O)NCc3ccccc3)CC[C@]3(C)[C@H](CC[C@@H]4[C@@]5(C)CC[C@H](OC(=O)CC(C)(C)C(=O)O)C(C)(C)[C@@H]5CC[C@]43C)[C@@H]12	IIIB		RT activity	>0.199 µM

Again, the opening 6 rows:

compound	strain or isolate	mutations	method	result
Nc1nc(NC2CC2)c2ncn([C@H]3CO[C@@H](CO)O3)c2n1	IIIB BCH-13520-resistant (RT V75I)	RT-V75I	RT activity	0.48 µM
CC(C)C1=C2[C@H]3CC[C@@H]4[C@@]5(C)CC[C@H](OC(=O)[C@H]6C[C@@H](C(=O)O)C6(C)C)C(C)(C)[C@@H]5CC[C@@]4(C)[C@]3(C)CC[C@@]2([C@@H](O)CNCC2(N)CNC2)CC1=O	92HT599		p24 / ELISA	<1 µM
C=C(C)[C@@H]1CC[C@]2(N)CC[C@]3(C)[C@H](CC[C@@H]4[C@@]5(C)CC[C@H](OC(=O)CC(C)(C)C(=O)O)C(C)(C)[C@@H]5CC[C@]43C)[C@@H]12	IIIB		RT activity	>0.199 µM
CCC(F)(F)COc1ccc(-c2cnc(C)c([C@H](OC(C)C)C(=O)O)c2N2CCC(C)(C)CC2)nc1	NL4-3		luminescence	0.0079 µM
Cc1ncnn1-c1cc(F)ccc1CNC(=O)c1nc2n(c(=O)c1O)CCOC21CCN(C(=O)C(=O)N(C)C)CC1	NL4-3		luciferase / reporter gene	≥0.1 µM
Cc1c(-c2c([C@H](OC(C)(C)C)C(=O)O)cnc3ccccc23)cc(F)c2c1CCCO2				0.1 µM